Target: T1, PDZ domain of the human MAST2 protein (human), Q6P0Q8
T1 chain: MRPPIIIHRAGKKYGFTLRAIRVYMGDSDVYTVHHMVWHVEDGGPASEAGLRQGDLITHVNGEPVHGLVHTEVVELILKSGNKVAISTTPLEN
Test: ITC, 298 K, MAST2-PDZ (30 µM) titrated with peptide

Binder: SWEVHGQQTRL (modifications not checked) [454 (Neurovita 3)]
- Kd: 62.9 nM
